Tested on: Saccharomyces cerevisiae ABC16-Green Monster
Assay: growth inhibition at single dose (up to 150 µM), below the 70% cut-off for dose-response; higher = more potent
Settings: 18 h; 30 °C; YPD
In short: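 The entry is percent growth inhibition of drug-sensitive S. cerevisiae ABC16-Green Monster cells. After overnight growth in YPD at 30 °C, cells were diluted to OD600 0.1–0.2 and exposed to each library compound at 150 µM in 200 µl per well, in biological duplicates with untreated cultures beside them, and OD600 was read at 0 h and after 18 h at 30 °C. Any compound under 70% in both replicates was not carried to dose-response.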

| SMILES | growth inhibition at single dose |
| --- | --- |
| c1ccc2c(NCCCCCCNc3c4c(nc5ccccc35)CCCC4)c3c(nc2c1)CCCC3 | < 70% |
| CCC1(C)CC(CCNCc2ccccc2O)(c2ccc(C)cc2)CCO1 (configuration not stated) | < 70% |
